How the values were obtained:
[1] = biological target: Human immunodeficiency virus type 1 reverse transcriptase (Human immunodeficiency virus 1, UniProt Q72547, Y181C); assay: Inhibition of HIV1 isolate R8 reverse transcriptase Y181C mutant after 90 mins by electrochemiluminescence analysis
[2] = biological target: Human immunodeficiency virus type 1 reverse transcriptase (Human immunodeficiency virus 1, UniProt Q72547, K103N); assay: Inhibition of HIV1 isolate R8 reverse transcriptase K103N mutant after 90 mins by electrochemiluminescence analysis

SMILES: Cc1cc(C#N)cc(C)c1Oc1nc(Nc2ccc(C#N)cc2)nc(N)c1Br [ETRAVIRINE]
- IC50 [1]: 1.96 nM
- IC50 [2]: 1.3 nM
